Compound potency records, mixed from different reports. Data source: NIAID ChemDB in PubChem.

Common to all: whole-cell or culture tests; agent: Candida albicans

An empty or dashed field is not shown. ECn: concentration that inhibits the pathogen or its effect by n%. Neighbouring rows are from separate reports. A number after MIC or MFC names an inhibition level or a share of isolates.

structure	read-out	strain	read by	value
O=C(CSc1nnc(-c2ccncc2)n1-c1ccccc1)c1ccccc1	MIC	ATCC 10231	-	25 µg/mL
N#Cc1ccc(Nc2nc(Oc3cccc4cccnc34)nc(N3CCN(c4ccccn4)CC3)n2)cc1C(F)(F)F	MIC	MTCC 183	agar	6.25 µg/mL
CCn1c(SCC(=O)c2ccccc2)nnc1-c1ccncc1	MIC	ATCC 10231	-	25 µg/mL
CC(=O)O[C@@H]1C(=O)N(c2ccc(C(=O)O)cc2)[C@H]1c1ccc2c(c1)OCO2	MIC	SH/T54	-	135.5 µM
CC(=O)c1ccc(Nc2ncc(C)c(Nc3ccc(C(C)=O)cc3)n2)cc1	EC50	-	-	23.5 µg/mL
O=C(c1ccccc1)C(c1ccccc1)n1ccnc1	MFC	-	broth dilution	>256 µg/mL
COc1ccc(CSc2cc(C(N)=S)ccn2)cc1	MIC	44859	-	125 µM
c1ccc(CCCCC[n+]2c3ccccc3cc3[nH]c4ccccc4c32)cc1	EC50	ATCC 90028	-	80 µg/mL
COC(=O)c1ccc(N2C(=O)C(OC(C)=O)C2c2ccccc2)cc1	MIC	SH/T54	-	147 µM
N#Cc1cnn(-c2ccccc2)c1/N=c1\ssnc1Cl	MIC	ATCC 10231	-	50 µg/mL
NC(=NC1CCCC1)c1ccc(-c2ccc(-c3ccc(C(N)=NC4CCCC4)cc3)o2)cc1	MFC	Isolate CA783	-	25 µg/mL
O=c1cn[nH]c(=O)[nH]1	EC50	-	-	>100 µg/mL
CNC1C(C)OC(O[C@H]2c3cc(C)c(C(=O)NC(C)C(=O)O)c(OC)c3-c3c(cc4c(c3O)C(=O)c3cc(OC)cc(OC)c3C4=O)[C@@H]2O)C(O)C1OC1OCC(O)C(O)C1O	MIC	A9540	-	>100 µg/mL
NC(=S)c1ccnc(SCc2ccccc2F)c1	MIC	44859	-	>500 µM
Cc1nc(NC(=O)c2ccc(F)cc2)sc1C(=O)N/N=C1/S/C(=C/c2ccc(Cl)cc2)C(=O)N1c1ccccc1	MIC50	MTCC 227	-	500 µg/mL
CC(=O)OC1C(=O)N(c2ccccc2)C1c1ccccc1	MIC	SH/T54	-	356 µM
N#Cc1ncn(CCc2ccc(Cl)cc2Cl)c1/N=c1\ssnc1Cl	MIC	ATCC 10231	-	25 µg/mL
Cc1ccccc1/C=C1/S/C(=N/NC(=O)c2sc(NC(=O)c3ccc(F)cc3)nc2C)N(c2ccccc2)C1=O	MIC50	MTCC 227	-	100 µg/mL
Oc1c(-c2ccc(-c3ccccc3)cc2)nc2ccccn12	MIC	A	-	>125 µg/mL
CN[C@@H]1[C@H](O[C@@H]2OC[C@@H](O)[C@H](O)[C@H]2O)[C@@H](O)[C@H](O[C@H]2c3cc(C)c(C(=O)N[C@H](C)C(=O)O)c(O)c3-c3c(cc4c(c3O)C(=O)c3cc(OC)c(C(=O)O)c(O)c3C4=O)[C@@H]2O)O[C@@H]1C	MIC	A9540	-	>100 µg/mL
c1ccc(CCCCCn2c3ccccc3c3nc4ccccc4cc32)cc1	EC50	ATCC 90028	-	18 µg/mL
OC(Cn1cncn1)(Cn1cncn1)c1ccc(F)cc1F	MIC	E81022	-	0.39 µg/mL
C/C(=N\NC(=O)CSc1ncn[nH]1)c1ccccc1[N+](=O)[O-]	MIC	ATCC 90028	-	200 µg/mL
N#Cc1cnn(Cc2ccccc2)c1/N=c1\ssnc1Cl	MIC	ATCC 10231	-	>100 µg/mL
O=C(c1ccccc1)C(c1ccccc1)n1nnc2ccccc21	MFC	-	broth dilution	>256 µg/mL
CC(C(O)(Cn1cncn1)c1ccc(F)cc1F)S(C)(=O)=O	MIC50	52 strains	-	2 µg/mL
Cc1ccc(CSc2cc(C(N)=S)ccn2)cc1	MIC	44859	-	31.25 µM
N#Cc1ccc(Nc2nc(Oc3cccc4cccnc34)nc(N3CCOCC3)n2)cc1C(F)(F)F	MIC	MTCC 183	agar	25 µg/mL
C/C(=N\NC(=O)CSc1n[nH]c(C)n1)c1ccccc1[N+](=O)[O-]	MIC	ATCC 90028	-	400 µg/mL
CC(=O)OC1C(=O)N2CCCS(=O)(=O)C12c1ccccc1	MIC	SH/T54	-	19.41 µM
N=C(N)c1ccc2nc(-c3ccc(-c4cc(=O)c5cc(-c6nc7ccc(C(=N)N)cc7[nH]6)ccc5o4)cc3)[nH]c2c1	MIC	ATCC 10231	-	>50 µg/mL
C/C(=N\NC(=O)CSc1n[nH]c(C)n1)c1ccccc1Cl	MIC	ATCC 90028	-	200 µg/mL
COc1ccc2c(=O)cc(-c3ccc(-c4nc5ccc(C(N)=NC(C)C)cc5[nH]4)cc3)oc2c1	MIC	ATCC 10231	-	12.5 µg/mL
CCc1nc(SCC(=O)N/N=C(\C)c2ccccc2[N+](=O)[O-])n[nH]1	MIC	ATCC 90028	-	400 µg/mL
CC(C)N=C(N)c1ccc(-c2cc(=O)c3cc(C(N)=NC(C)C)ccc3o2)cc1	MIC	ATCC 10231	-	>50 µg/mL
c1ccc(-c2ccc(C(c3ccccc3)n3ccnc3)cc2)cc1	MIC90	16 strains	-	8 µg/mL
COc1cc(/C=C/C(=O)CC(=O)/C=C/c2ccc(O)c(OC)c2)ccc1O	MIC	20 strains	broth dilution / visual reading	100 µg/mL
Oc1c(-c2ccccc2)nc2ccccn12	MIC	A	-	>125 µg/mL
C/C(=N\NC(=O)CSc1n[nH]c(C)n1)c1ccc([N+](=O)[O-])cc1	MIC	ATCC 90028	-	100 µg/mL
NC(=NC1CCCCC1)c1ccc2nc(-c3ccc4oc(-c5ccccc5)cc(=O)c4c3)[nH]c2c1	MIC	ATCC 10231	-	12.5 µg/mL
Brc1ccc2[nH+]c3c4ccccc4n(CCCCCC4CCCCC4)c3cc2c1	EC50	ATCC 90028	-	>50 µg/mL
O=[N+]([O-])c1cccc(/C=N/Nc2ccnc3cc(Cl)ccc23)c1	MFC	-	-	>200 µg/mL
N#Cc1cnn(CCc2ccccc2)c1/N=c1\ssnc1Cl	MIC	ATCC 10231	-	25 µg/mL
CC(C)NC(=N)c1ccc2nc(-c3ccc(-c4cc(=O)c5cc(-c6nc7ccc(C(=N)NC(C)C)cc7[nH]6)ccc5o4)cc3)[nH]c2c1	MIC	ATCC 10231	-	>50 µg/mL
O=[N+]([O-])c1ccc(-c2nc3ncccn3c2O)cc1	MIC	A	-	>125 µg/mL
CCCCN=C(N)c1ccc2nc(-c3ccc4oc(C)cc(=O)c4c3)[nH]c2c1	MIC	ATCC 10231	-	25 µg/mL
Clc1ccc(COC(Cn2ccnc2)c2ccc(Cl)cc2Cl)c(Cl)c1	MIC	ATCC 10231	-	15.6 µg/mL
COc1cc2c(c(O)c1C[N+](C)(C)C)C(=O)c1cc3c(c(O)c1C2=O)-c1c(O)c(C(=O)N[C@H](C)C(=O)O)c(C)c(N)c1[C@H](O[C@@H]1O[C@H](C)[C@H](N(C)C)[C@H](O[C@@H]2OC[C@@H](O)[C@H](O)[C@H]2O)[C@H]1O)[C@H]3O	MIC	A9540	-	>100 µg/mL
Cc1cccc(/C=C2/S/C(=N/NC(=O)c3sc(NC(=O)c4ccc(F)cc4)nc3C)N(c3ccccc3)C2=O)c1	MIC50	MTCC 227	-	250 µg/mL
N#Cc1ccccc1/C=N/Nc1ccnc2cc(Cl)ccc12	MIC	-	-	100 µg/mL
Clc1ccc(C(c2ccccc2)n2cncn2)cc1	MIC90	-	agar	32 µg/mL
Oc1c(-c2ccc(F)cc2)nc2ncccn12	MIC	A	-	>125 µg/mL
COc1ccccc1/C=C1/S/C(=N/NC(=O)c2sc(NC(=O)c3ccc(F)cc3)nc2C)N(c2ccccc2)C1=O	MIC50	MTCC 227	-	250 µg/mL
N#Cc1cnn(CCCc2ccccc2)c1/N=c1\ssnc1Cl	MIC	ATCC 10231	-	25 µg/mL
CCc1nc(SCC(=O)N/N=C(\C)c2ccc(O)cc2)n[nH]1	MIC	ATCC 90028	-	200 µg/mL
O=[N+]([O-])c1ccc(-c2nc3ccccn3c2O)cc1	MIC	A	-	>125 µg/mL
Cc1nc(NC(=O)c2ccc(F)cc2)sc1C(=O)N/N=C1/S/C(=C/c2cccc(O)c2)C(=O)N1c1ccccc1	MIC50	MTCC 227	-	250 µg/mL
Oc1c(-c2ccc(Cl)cc2)nc2ccccn12	MIC	A	-	>125 µg/mL
NC(=S)c1ccnc(SCc2cccc(Br)c2)c1	MIC	44859	-	31.25 µM
N#Cc1ccc(Nc2nc(Oc3cccc4cccnc34)nc(N3CCCCC3)n2)cc1C(F)(F)F	MIC	MTCC 183	agar	25 µg/mL
Cc1nc(NC(=O)c2ccc(F)cc2)sc1C(=O)N/N=C1/S/C(=C/c2ccc(O)cc2)C(=O)N1c1ccccc1	MIC50	MTCC 227	-	50 µg/mL
COc1ccc2c(c1)cc1c(c3ccccc3n1C)[n+]2C	EC50	ATCC 90028	-	2.1 µg/mL
N#Cc1ccc(Nc2nc(Oc3cccc4cccnc34)nc(N3CCN(c4ncccn4)CC3)n2)cc1C(F)(F)F	MIC	MTCC 183	agar	6.25 µg/mL
N=C(N)c1ccc2nc(-c3ccc(-c4cc(=O)c5ccccc5o4)cc3)[nH]c2c1	MIC	ATCC 10231	-	25 µg/mL
Cc1cnc(Nc2ccc(O)cc2)nc1Nc1ccc(O)cc1	EC50	-	-	51 µg/mL
CCC(C)C(N)C(=O)N[C@H]1[C@@H](O)[C@H](n2cnc3c(N)ncnc32)O[C@@H]1C(=O)O	MIC	FP633	-	0.4 µg/mL
Cc1nc(NC(=O)c2ccc(F)cc2)sc1C(=O)N/N=C1/S/C(=C/c2ccccc2)C(=O)N1c1ccccc1	MIC50	MTCC 227	-	1000 µg/mL
NC[C@@H]1O[C@H](O[C@H]2[C@@H](O)[C@H](O[C@@H]3[C@@H](O)[C@H](N)C[C@H](N)[C@H]3O[C@H]3O[C@H](CN)[C@@H](O)[C@H](O)[C@H]3N)O[C@@H]2CO)[C@H](N)[C@@H](O)[C@@H]1O	EC50	-	-	1.1 µg/mL
Fc1cccc(/C=N/Nc2ccnc3cc(Cl)ccc23)c1	MIC	-	-	>200 µg/mL
Oc1c(-c2ccc(Cl)cc2Cl)nc2ccccn12	MIC	A	-	>125 µg/mL
COc1ccc(C(c2ccc(OC)cc2)n2ccnc2)cc1	MIC90	-	agar	>256 µg/mL
Oc1c(-c2ccccc2)nc2ncccn12	MIC	A	-	>125 µg/mL
NC(=S)c1ccnc(SCc2ccc(Cl)cc2)c1	MIC	44859	-	62.5 µM
CCc1nc(SCC(=O)N/N=C(\C)c2ccc([N+](=O)[O-])cc2)n[nH]1	MIC	ATCC 90028	-	100 µg/mL
O=c1cc(-c2ccc(C3=NCCN3)cc2)oc2ccc(C3=NCCN3)cc12	MIC	ATCC 10231	-	>50 µg/mL
Cn1c2ccccc2c2c1cc1cc(Br)ccc1[n+]2CCCCCc1ccccc1	EC50	ATCC 90028	-	43 µg/mL
COc1cccc(/C=C2/S/C(=N/NC(=O)c3sc(NC(=O)c4ccc(F)cc4)nc3C)N(c3ccccc3)C2=O)c1	MIC50	MTCC 227	-	500 µg/mL
Cc1ccc(N2C(=O)[C@@H](O)[C@H]2/C=C/c2ccccc2)cc1	MIC	SH/T54	-	44.8 µM

8 of the rows above, restated:

structure,read-out,strain,read by,value
Oc1c(-c2ccc(F)cc2)nc2ncccn12,MIC,A,-,>125 µg/mL
C/C(=N\NC(=O)CSc1ncn[nH]1)c1ccccc1[N+](=O)[O-],MIC,ATCC 90028,-,200 µg/mL
N#Cc1cnn(CCCc2ccccc2)c1/N=c1\ssnc1Cl,MIC,ATCC 10231,-,25 µg/mL
CC(=O)O[C@@H]1C(=O)N(c2ccc(C(=O)O)cc2)[C@H]1c1ccc2c(c1)OCO2,MIC,SH/T54,-,135.5 µM
Cn1c2ccccc2c2c1cc1cc(Br)ccc1[n+]2CCCCCc1ccccc1,EC50,ATCC 90028,-,43 µg/mL
CCc1nc(SCC(=O)N/N=C(\C)c2ccccc2[N+](=O)[O-])n[nH]1,MIC,ATCC 90028,-,400 µg/mL
COc1ccc(CSc2cc(C(N)=S)ccn2)cc1,MIC,44859,-,125 µM
CCCCN=C(N)c1ccc2nc(-c3ccc4oc(C)cc(=O)c4c3)[nH]c2c1,MIC,ATCC 10231,-,25 µg/mL